{"source": "PubChem BioAssay AID547", "about": "(Emory University Molecular Libraries Screening Center, 2006)", "note": "Several values for one entry are separate records, joined by “and”; a condition that tells them apart may be missing. Identical values can stand only once. This is a selection; strong and weak results do not stand in their true shares. Activity calls are given as the source filed them. The rule behind the calls is not given here.", "data": [{"biological_target": "Chaperone protein DnaK (Escherichia coli (strain K12)) (UniProt P0A6Y8)", "assay": "blockers of bacterial DnaK function – luminescence, E. coli K12, primary screen (AID 547);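 note: tested at 10 µM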", "settings": "DnaK chaperone assay, luminescence read-out; active compounds read low", "values": [{"molecule": "CN(C(=O)Cc1ccc(Cl)c(Cl)c1)[C@H]1CCCC[C@@H]1N1CCCC1", "luminescence": "inactive: 2.8e+06 cps and inactive: 2.3e+06 cps"}, {"molecule": "CN(C(=O)Cc1ccc(Cl)c(Cl)c1)[C@@H]1CCCC[C@@H]1N1CCCC1", "luminescence": "inactive: 2.3e+06 cps"}, {"molecule": "CN(C(=O)Cc1ccccc1)[C@@H]1CC[C@]2(CCCO2)C[C@H]1N1CCCC1", "luminescence": "inactive: 2.3e+06 cps"}, {"molecule": "CN(C(=O)Cc1ccc(Cl)c(Cl)c1)[C@@H]1CC[C@]2(CCCO2)C[C@H]1N1CCCC1", "luminescence": "inactive: 2.5e+06 cps"}, {"molecule": "CN(CCCl)Cc1cc(Cl)c(NC2=NCCN2)c(Cl)c1", "luminescence": "inactive: 3e+06 cps"}, {"molecule": "CN(C(=O)Cc1ccc(Cl)c(Cl)c1)[C@@H]1CCCC[C@H]1N1CCCC1", "luminescence": "inactive: 2.2e+06 cps"}]}]}
